From publication PMC11274511, “Synthesis of Substituted 1,2,4-Triazole-3-Thione Nucleosides Using E. coli Purine Nucleoside Phosphorylase” (Biomolecules, 2024)

Tested on: HSV-1/L2/R^ACV
Conditions: Strain HSV-1/L2/R^ACV
Method: Herpes simplex virus type 1 (HSV-1) strain L2 was obtained from the State’s collection of viruses at FSBI «N. F. Gamaleya National Research Centre for Epidemiology and Microbiology, Russian Ministry of Health, Russia» («D. I. Ivanovsky Institute of Virology» subdivision).
Antiviral activity in vitro was measured by the method of the cytopathic effect (CPE) inhibition assay. In 96-well plastic plates with the 24 h generated cell monolayer, 2-fold serial dilutions of the compounds were prepared. Cells infected with MOI of 0.1 PFU/cell were incubated at 37 °C in 5% CO2 atmosphere. […] Antiviral activity was assessed by determining of IC50 and IC95.
Three controls were used: (1) Toxicity control. Uninfected cells were incubated in the presence of the drug in the same concentration range as in the experiment. (2) Virus control. […] (3) Cell control. Uninfected cell cultures were incubated in the maintenance medium, which contained no drug.

How did the “SI (ratio of CC50 to IC50)” value turn out when `NC(=O)c1ncn([C@@H]2O[C@H](CO)[C@@H](O)[C@H]2O)n1` [Ribavirin, reference compound] was run?
The value was >2.
